Biological target: H2 HA (A/Singapore/1/1957) (Influenza A virus A/Singapore/1/1957 …, UniProt Q67333)
Experiment: negative-stain EM; […] 2D class averages and 3D reconstructions
Conditions: both partners purified

B1: 222-1C06 Fab (Fab, V domains shown)
VH: EVQLVESGGDLVQPGGSLRLSCVVSGFTFSTYSMNWVRQAPGKGLEWVSYISSSSLSRYYADSVKGRFTISRDNAKNSLSLQLNSLRAEDTAVYYCVRGSITWPTEYYLDYWGQGTLVTVSS
VL: EIVMTQSPATLSVSPGERATLSCRASQTIRSDLAWYQQKPGQPPRLIIYGASTRATGIPARFSGSGSGTEFTLTISSLQSEDSAVYFCQQYNNWPPLTFGGGTKVEIK
B1: binds.
